Data on 1 compound can be found in ChEMBL document CHEMBL4819148, “Anti-protozoal and anti-fungal evaluation of 3,5-disubstituted 1,2-dioxolanes” (Bioorg Med Chem Lett, 2021).

In this series the test system is HUVEC. In words: Cytotoxicity against HUVEC cells assessed as reduction in cell viability. It is filed as cell-based. Conditions: human.

The term CC50 denotes the concentration at which the toxic effect on the cells reaches its halfway point. `CCCCCCC1CC(N=[N+]=[N-])OO1` (stereo unspecified): the CC50 worked out at 12.2 µM.
